Publication PMC2625307 (Journal of molecular biology, 2008)

What was measured:
YU-2 env = assay type: cell-based, HIV-1 group M; details: JC53BL-13 cells, genetic distance to HXBc2 0.16766
NL4.3 env = assay type: cell-based, HIV-1 group M; details: JC53BL-13 cells, genetic distance to HXBc2 0.05769
IIIB = assay type: cell-based, HIV-1 group M; details: PM1 cells, genetic distance to HXBc2 0.03060
SUMA d736-68 = assay type: cell-based, HIV-1 group M; details: JC53BL-13 cells, genetic distance to HXBc2 0.18273
YU2 gp120 = YU2 gp120 (Human immunodeficiency virus type 1 group M subtype B, UniProt P35961); assay: Contact surface area of gp120, YU2; set-up: species or system HIV-1
BaL = assay type: cell-based, HIV-1 group M; details: PM1 cells, genetic distance to HXBc2 0.13532
WEAU 16-8M = assay type: cell-based, HIV-1 group M; details: JC53BL-13 cells, genetic distance to HXBc2 0.20241

| Structure (SMILES) | IC50 (YU-2 env) [nM] | IC50 (NL4.3 env) [nM] | IC50 (IIIB) [nM] | IC50 (SUMA d736-68) [nM] | Contact surface area of gp120, total (YU2 gp120; asymmetric unit molecule (1)) [Å^2] | Contact surface area of gp120, total (YU2 gp120; asymmetric unit molecule (2)) [Å^2] | IC50 (BaL) [nM] | IC50 (WEAU 16-8M) [nM] |
| --- | --- | --- | --- | --- | --- | --- | --- | --- |
| CC(C)C[C@@H]1NC(=O)CNC(=O)[C@H](CC(C)C)NC(=O)[C@H](CO)NC(=O)[C@H](CCCCN)NC(=O)[C@@H]2CSSC[C@@H](C(=O)N[C@H](C(N)=O)C(C)C)NC(=O)[C@H](C)NC(=O)[C@@H]3CSSC[C@H](NC(=O)[C@H](Cc4ccccc4)NC(=O)[C@H](Cc4c[nH]cn4)NC(=O)[C@H](CC(C)C)NC(=O)[C@H](CC(N)=O)NC(=O)CCSSC[C@H](NC(=O)[C@H](CCCCN)NC(=O)CNC(=O)[C@H](CC(C)C)NC1=O)C(=O)N[C@@H](C)C(=O)NCC(=O)N[C@@H](CO)C(=O)N[C@@H](Cc1ccc(-c4ccccc4)cc1)C(=O)N3)C(=O)N[C@@H](CCC(N)=O)C(=O)N[C@@H](CC(C)C)C(=O)N[C@@H](CCCNC(=N)N)C(=O)N2 [CD4M33] | 210 | 5 | 12 | 4 | 527.6 | 543.1 | 120 | – |
| CC(C)C[C@@H]1NC(=O)CNC(=O)[C@H](CC(C)C)NC(=O)[C@H](CO)NC(=O)[C@H](CCCCN)NC(=O)[C@@H]2CSSC[C@@H](C(=O)N[C@H](C(N)=O)C(C)C)NC(=O)[C@H](C)NC(=O)[C@@H]3CSSC[C@H](NC(=O)[C@H](Cc4ccccc4)NC(=O)[C@H](Cc4c[nH]cn4)NC(=O)[C@H](CC(C)C)NC(=O)[C@H](CC(N)=O)NC(=O)CCSSC[C@H](NC(=O)[C@H](CCCNC(=N)N)NC(=O)CNC(=O)[C@H](CC(C)C)NC1=O)C(=O)N[C@@H](C)C(=O)N1CCC[C@@H]1C(=O)N[C@@H]([C@@H](C)O)C(=O)N[C@@H](Cc1ccccc1)C(=O)N3)C(=O)N[C@@H](CCC(N)=O)C(=O)N[C@@H](CC(C)C)C(=O)N[C@@H](CCCNC(=N)N)C(=O)N2 [[Phe^23]M47] | – | 4 | – | – | 397.2 | 439.2 | 33 | 47 |
